Test results as given in ChEMBL document CHEMBL3872213, “Synthesis and biological activity of furoxan derivatives against Mycobacterium tuberculosis” (Eur J Med Chem, 2016).
Converted amounts (≈) assume the structure as drawn.

Test system: Mycobacterium tuberculosis
Details: H37Rv ATCC 27294

Work on `Cc1c([N+](=O)[O-])no[n+]1[O-]` yielded an MIC90 of 2.6 µM (≈ 0.377 µg/mL).
